Reference: ChEMBL document CHEMBL1687848, “In vitro effect of qnrA1, qnrB1, and qnrS1 genes on fluoroquinolone activity against isogenic Escherichia coli isolates with mutations in gyrA and parC” (2011)
Activity calls are given as the source filed them. The rule behind the calls is not given here.

Tests used:
[1] = tested on: Escherichia coli; assay: Antibacterial activity against Escherichia coli ATCC 25922 expressing qnrA gene and pBK-QnrA1 assessed as reduction of viable bacteria at 4 time MIC after 24 hrs; assay type: functional, organism-based
[2] = tested on: Escherichia coli; assay: Antibacterial activity against Escherichia coli ATCC 25922 expressing qnrS gene and pBK-QnrS1 assessed as reduction of viable bacteria at 4 time MIC after 24 hrs; assay type: functional, organism-based

For `O=C(O)c1cn(C2CC2)c2cc(N3CCNCC3)c(F)cc2c1=O` [CIPROFLOXACIN], the Activity [1] was “inactive” and the Activity [2] was “inactive”.
